System: Influenza A virus (A/California/08/2009(H1N1))
Assay: Selectivity ratio of IC50 for Influenza A virus (A/California/08/2009(H1N1)) wild type neuraminidase to IC50 for oseltamivir-resistant Influenza A virus (A/California/08/2009(H1N1)) neuraminidase H274Y mutant

SMILES	Selectivity ratio
COc1cc(O)c(C)c(O)c1C(=O)/C=C/c1ccccc1	3.6
COc1c(C)c(O)c(C)c(O)c1C(=O)/C=C/c1ccccc1	7
COc1c(C)c(O)c(C)c(O)c1C(=O)/C=C/c1ccccc1O	4.23
COc1c(C)c(O)c(C)c(O)c1C(=O)/C=C/c1ccc(O)cc1	2.46
